PubChem BioAssay AID624099 – ICCB-Longwood, 2012
Shown is an unselected part of about 21,000 reagents. Over the whole deposit, 497 (2.4%) were called active. 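Higher z means weaker E2 silencing; only reporter increases were scored, and knock-downs that hurt cell survival may mask genuine repressor factors.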

Test: 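Host factors E2 relies on to silence an HPV18 LCR reporter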 (primary screen)
Cell system: human C33A cervical carcinoma cells (HPV-negative) stably expressing BPV1 E2 and an HPV18 LCR luciferase reporter
Reagent: siRNA pool against human genes, 40 nM
Duration: 72 h
Read-out: 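Per-well luciferase luminescence, z-scored on each plate against the plate mean and SD with control wells left out, then averaged across three replicate plates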
Scale: mean z-score and z-score: higher = stronger reporter signal, weaker E2 silencing
Call rule: 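Hit if mean z-score reaches 2 and two or more of three replicate z-scores also reach 2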

{"gene":"ZKSCAN8P2 (ZKSCAN8 pseudogene 2)","mean z-score":0.42,"z-score, replicate A":0.41,"z-score, replicate B":0.02,"z-score, replicate C":0.84,"activity call":"inactive"}
{"gene":"LCNL1 (lipocalin like 1)","mean z-score":-0.15,"z-score, replicate A":-0.21,"z-score, replicate B":-0.24,"z-score, replicate C":0.01,"activity call":"inactive"}
{"gene":"PM20D2 (peptidase M20 domain containing 2)","mean z-score":0.66,"z-score, replicate A":0.29,"z-score, replicate B":0.73,"z-score, replicate C":0.95,"activity call":"inactive"}
{"gene":"PAQR7 (progestin and adipoQ receptor family member 7)","mean z-score":-0.16,"z-score, replicate A":-0.1,"z-score, replicate B":-0.29,"z-score, replicate C":-0.08,"activity call":"inactive"}
{"gene":"CDR2L (cerebellar degeneration related protein 2 like)","mean z-score":1,"z-score, replicate A":1.35,"z-score, replicate B":0.75,"z-score, replicate C":0.92,"activity call":"inactive"}
{"gene":"ACSL5 (acyl-CoA synthetase long chain family member 5)","mean z-score":-0.91,"z-score, replicate A":-0.82,"z-score, replicate B":-0.75,"z-score, replicate C":-1.17,"activity call":"inactive"}
{"gene":"LRRC52 (leucine rich repeat containing 52)","mean z-score":-0.59,"z-score, replicate A":-0.55,"z-score, replicate B":-0.49,"z-score, replicate C":-0.73,"activity call":"inactive"}
{"gene":"SGIP1 (SH3GL interacting endocytic adaptor 1)","mean z-score":0.42,"z-score, replicate A":0.58,"z-score, replicate B":0.4,"z-score, replicate C":0.27,"activity call":"inactive"}
{"gene":"ISG20L2 (interferon stimulated exonuclease gene 20 like 2)","mean z-score":-0.34,"z-score, replicate A":-0.42,"z-score, replicate B":-0.46,"z-score, replicate C":-0.14,"activity call":"inactive"}
{"gene":"PPRC1 (PPARG related coactivator 1)","mean z-score":1.18,"z-score, replicate A":1.26,"z-score, replicate B":0.94,"z-score, replicate C":1.33,"activity call":"inactive"}
{"gene":"VN1R1 (vomeronasal 1 receptor 1)","mean z-score":1.15,"z-score, replicate A":1.34,"z-score, replicate B":1.17,"z-score, replicate C":0.95,"activity call":"inactive"}
{"gene":"C1QTNF1 (C1q and TNF related 1)","mean z-score":0.23,"z-score, replicate A":0.02,"z-score, replicate B":0.45,"z-score, replicate C":0.21,"activity call":"inactive"}
{"gene":"ORC4 (origin recognition complex subunit 4)","mean z-score":0.18,"z-score, replicate A":0.12,"z-score, replicate B":0.54,"z-score, replicate C":-0.12,"activity call":"inactive"}
{"gene":"DRICH1 (aspartate rich 1)","mean z-score":1.25,"z-score, replicate A":1.33,"z-score, replicate B":1.41,"z-score, replicate C":1.03,"activity call":"inactive"}
{"gene":"MAGEA10 (MAGE family member A10)","mean z-score":-0.57,"z-score, replicate A":-0.82,"z-score, replicate B":-0.37,"z-score, replicate C":-0.51,"activity call":"inactive"}
{"gene":"RWDD2B (RWD domain containing 2B)","mean z-score":1.26,"z-score, replicate A":1.6,"z-score, replicate B":1.08,"z-score, replicate C":1.11,"activity call":"inactive"}
{"gene":"ZNF350 (zinc finger protein 350)","mean z-score":0.05,"z-score, replicate A":-0.48,"z-score, replicate B":-0.24,"z-score, replicate C":0.88,"activity call":"inactive"}
{"gene":"FGL1 (fibrinogen like 1)","mean z-score":-0.6,"z-score, replicate A":-0.68,"z-score, replicate B":-0.63,"z-score, replicate C":-0.49,"activity call":"inactive"}
{"gene":"SEC22C (SEC22 homolog C, vesicle trafficking protein)","mean z-score":-0.12,"z-score, replicate A":-0.13,"z-score, replicate B":-0.09,"z-score, replicate C":-0.13,"activity call":"inactive"}
{"gene":"KLHDC4 (kelch domain containing 4)","mean z-score":-0.1,"z-score, replicate A":0.02,"z-score, replicate B":-0.17,"z-score, replicate C":-0.15,"activity call":"inactive"}
{"gene":"TGIF2LY (TGFB induced factor homeobox 2 like Y-linked)","mean z-score":0.79,"z-score, replicate A":0.7,"z-score, replicate B":0.93,"z-score, replicate C":0.73,"activity call":"inactive"}

Look-ups from above.
Result of RWDD2B (RWD domain containing 2B) in “z-score, replicate C”: 1.11
Under “activity call”, PAQR7 (progestin and adipoQ receptor family member 7) reads inactive
